Patent US20140018418A1 (priority 2007, published 2014)

Biological target: neuraminidase of H5N1 influenza virus A/Hanoi/30408/2005 (clone 7), oseltamivir sensitive strain (Influenza A virus, UniProt Q3C1C4)
Assay: Neuraminidase inhibitory activity test, oseltamivir sensitive strain

CC(=O)N[C@H]1[C@H]([C@H](O)[C@H](O)CO)OC(C(=O)O)=C[C@@H]1N=C(N)N [Zanamivir, reference compound]
IC50: 0.96 nM
